In patent publication US4584132A, “1-(N-phosphinylcarbamoyl) β-lactam antibacterial agents” (dated 1986):

Key:
Test in all cases: minimum inhibitory concentration, microdilution broth method
[1] = system: P. aeruginosa Stone 130
[2] = system: E. coli 48
[3] = system: E. coli 257
[4] = system: P. vulgaris ATCC 6380
[5] = system: S. Pyoenes 503-782
[6] = system: E. cloacae 9570A
[7] = system: K. pneumoniae A
[8] = system: P. vulgaris 503-1136
[9] = system: P. aeruginosa 503-56
[10] = system: S. aureus Smith
[11] = system: P. mirabilis 190
[12] = system: S. marcescens SM

COP(=O)(NC(=O)N1C[C@H](NC(=O)Cc2ccccc2)C1=O)OC
Minimum Inhibitory Concentration [1]: > 128 µg/mL
Minimum Inhibitory Concentration [2]: 32 µg/mL
Minimum Inhibitory Concentration [3]: 32 µg/mL
Minimum Inhibitory Concentration [4]: 16 µg/mL
Minimum Inhibitory Concentration [5]: > 128 µg/mL
Minimum Inhibitory Concentration [6]: 64 µg/mL
Minimum Inhibitory Concentration [7]: 64 µg/mL
Minimum Inhibitory Concentration [8]: 16 µg/mL
Minimum Inhibitory Concentration [9]: > 128 µg/mL
Minimum Inhibitory Concentration [10]: 16 µg/mL
Minimum Inhibitory Concentration [11]: 16 µg/mL
Minimum Inhibitory Concentration [12]: 32 µg/mL
